Laboratory results taken from ChEMBL document CHEMBL2177067 (J Med Chem, 2012).

System: Staphylococcus aureus
Experiment: Noncompetitive inhibition of Staphylococcus aureus ATCC 25923 replicative DnaB helicase using Hel-5'FAM:Hel-3'BHQ as substrate assessed as DNA duplex strand-unwinding by FRET assay

Compound: Cc1c(CCC(=O)O)c(=O)oc2c(C)c(OCc3ccc(-c4ccccc4)cc3)ccc12
- Kiuc: 4 µM
